In the supplement of paper PMC3353916:

System: Sindbis virus TE/5'2J-GFP
Experiment: percent infected (GFP+ in RFP+ ISG-expressing cells); higher = more infection (less antiviral activity)
Experimental: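 Confirmatory testing of 87 ISGs. Triplicate wells of BHK/HA-Zeo (control) or BHK/NZAP-Zeo (ZAP) cells were transduced with lentiviruses co-expressing a human ISG plus TagRFP, then infected 48 h later with SINV TE/5'2J-GFP (moi 5). The % GFP+ cells among RFP+ cells was measured by flow cytometry at 8 h post infection. Fluc lentivirus served as control. Three independent experiments.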
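Also: Interferon-defective BHK-21 derivatives, ZAP line overexpressing the rat ZAP N-terminal zinc finger domain fused to Zeocin resistance, GFP scored within live singlet TagRFP+ cells.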

With “MQRADSEQPSKRPRCDDSPRTPSNTPSAEADWSPGLELHPDYKTWGPEQVCSFLRRGGFEEPVLLKNIRENEITGALLPCLDESRFENLGVSSLGERKKLLSYIQRLVQIHVDTMKVINDPIHGHIELHPLLVRIIDTPQFQRLRYIKQLGGGYYVFPGASHNRFEHSLGVGYLAGCLVHALGEKQPELQISERDVLCVQIAGLCHDLGHGPFSHMFDGRFIPLARPEVKWTHEQGSVMMFEHLINSNGIKPVMEQYGLIPEEDICFIKEQIVGPLESPVEDSLWPYKGRPENKSFLYEIVSNKRNGIDVDKWDYFARDCHHLGIQNNFDYKRFIKFARVCEVDNELRICARDKEVGNLYDMFHTRNSLHRRAYQHKVGNIIDTMITDAFLKADDYIEITGAGGKKYRISTAIDDMEAYTKLTDNIFLEILYSTDPKLKDAREILKQIEYRNLFKYVGETQPTGQIKIKREDYESLPKEVASAKPKVLLDVKLKAEDFIVDVINMDYGMQEKNPIDHVSFYCKTAPNRAIRITKNQVSQLLPEKFAEQLIRVYCKKVDRKSLYAARQYFVQWCADRNFTKPQDGDVIAPLITPQKKEWNDSTSVQNPTRLREASKSRVQLFKDDPM [SAMHD1]” the percent infected (experiment: confirmatory screen 1, BHK/HA-Zeo (control)) was 78.5 ± 2.4%, the percent infected (experiment: confirmatory screen 1, BHK/NZAP-Zeo (ZAP)) was 56.9 ± 1.1% and the percent infected (experiment: confirmatory screen 2, BHK/HA-Zeo (control)) was 93.61 ± 0.71%. For the same sequence, the percent infected (experiment: confirmatory screen 2, BHK/NZAP-Zeo (ZAP)) was 93.88 ± 0.22%, the percent infected (experiment: confirmatory screen 3, BHK/HA-Zeo (control)) was 91.54 ± 0.41% and the percent infected (experiment: confirmatory screen 3, BHK/NZAP-Zeo (ZAP)) was 91.24 ± 0.78%.

± gives the standard deviation of the averaged measurements.
